Mutational interference map of HIV-1 RNA dimerization

Sequence of the HIV-1 NL4-3 5' RNA, positions 1 to 437, as numbered in the source:
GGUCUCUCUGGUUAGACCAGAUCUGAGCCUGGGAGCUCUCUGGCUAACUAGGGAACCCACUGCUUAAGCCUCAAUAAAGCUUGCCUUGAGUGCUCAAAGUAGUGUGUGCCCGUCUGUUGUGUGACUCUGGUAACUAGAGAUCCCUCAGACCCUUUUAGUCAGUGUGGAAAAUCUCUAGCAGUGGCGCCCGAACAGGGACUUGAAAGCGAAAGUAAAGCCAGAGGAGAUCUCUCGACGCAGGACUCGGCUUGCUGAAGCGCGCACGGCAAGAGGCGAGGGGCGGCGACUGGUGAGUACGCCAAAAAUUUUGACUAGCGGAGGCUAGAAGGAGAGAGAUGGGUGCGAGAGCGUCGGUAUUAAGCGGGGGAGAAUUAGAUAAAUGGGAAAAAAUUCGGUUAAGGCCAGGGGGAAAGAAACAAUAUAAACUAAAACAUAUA

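Randomly mutated transcripts starting with one, two or three G (1G, 2G, 3G), capped or uncapped, were folded for 30 min at 37 °C. High salt was 300 mM KCl and 5 mM MgCl2, low salt 40 mM KCl and 0.1 mM MgCl2; monomer and dimer were parted on a native gel. Kdimer compares mutation frequencies in monomer and dimer, corrected for sequencing errors.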

Scale: median log2 Kdimer over the changes at a position; positive = changes inhibit dimerization, negative = changes enhance it. One numbering serves 1G, 2G and 3G. A position is written with its base where known. Bases beyond 437 are not listed in the source.

position | domain | 1G capped high-salt | 1G capped low-salt | 1G uncapped high-salt | 1G uncapped low-salt
A411 | none | 0.00 | 0.06 | 0.06 | 0.17
A412 | none | 0.03 | 0.06 | 0.03 | 0.07
G413 | none | 0.06 | -0.14 | 0.05 | -0.01
A414 | none | 0.02 | -0.01 | -0.06 | 0.09
A415 | none | -0.09 | -0.02 | 0.11 | 0.00
A416 | none | 0.10 | 0.01 | 0.13 | 0.13
C417 | none | 0.00 | 0.06 | 0.08 | 0.28
A418 | none | 0.09 | 0.01 | 0.13 | 0.11
A419 | none | 0.04 | 0.02 | 0.09 | 0.03
U420 | none | 0.02 | -0.06 | 0.00 | -0.02
A421 | none | 0.15 | 0.08 | 0.08 | 0.02
U422 | none | -0.04 | -0.12 | 0.07 | 0.00
A423 | none | 0.07 | -0.07 | 0.02 | -0.02
A424 | none | -0.04 | 0.08 | 0.02 | 0.09
A425 | none | -0.05 | -0.01 | 0.07 | 0.06
C426 | none | 0.12 | -0.05 | 0.03 | 0.08
U427 | none | -0.02 | 0.06 | 0.02 | -0.03
A428 | none | -0.03 | 0.15 | 0.05 | 0.12
A429 | none | 0.01 | 0.01 | 0.08 | 0.00
A430 | none | -0.03 | -0.01 | 0.09 | 0.03
A431 | none | -0.01 | -0.08 | 0.11 | -0.01
C432 | none | 0.00 | 0.03 | 0.08 | 0.00
A433 | none | 0.08 | -0.10 | 0.12 | 0.00
U434 | none | -0.13 | 0.13 | -0.03 | 0.05
A435 | none | 0.08 | -0.03 | 0.02 | 0.01
U436 | none | 0.06 | 0.03 | -0.01 | -0.04
A437 | none | 0.06 | 0.00 | 0.08 | -0.02
438 | none | 0.11 | -0.02 | 0.06 | -0.02
439 | none | 0.10 | -0.03 | 0.07 | -0.07
440 | none | 0.06 | -0.12 | 0.15 | -0.04
441 | none | 0.11 | -0.10 | -0.01 | -0.02
442 | none | -0.15 | -0.07 | 0.05 | 0.09
443 | none | 0.05 | 0.06 | 0.14 | 0.12
444 | none | 0.13 | 0.07 | 0.15 | 0.08
445 | none | 0.13 | 0.08 | 0.12 | 0.20
446 | none | 0.18 | -0.01 | 0.08 | 0.12
447 | none | 0.11 | -0.05 | -0.07 | 0.00
448 | none | 0.20 | 0.01 | -0.05 | 0.03
449 | none | 0.12 | 0.05 | -0.08 | -0.10
450 | none | 0.13 | 0.01 | 0.14 | 0.04
451 | none | 0.15 | 0.01 | 0.06 | 0.02

3 of these entries, quoted again:

{"position": "U420", "domain": "none", "1G capped high-salt": 0.02, "1G capped low-salt": -0.06, "1G uncapped high-salt": 0.00, "1G uncapped low-salt": -0.02}
{"position": "G413", "domain": "none", "1G capped high-salt": 0.06, "1G capped low-salt": -0.14, "1G uncapped high-salt": 0.05, "1G uncapped low-salt": -0.01}
{"position": "443", "domain": "none", "1G capped high-salt": 0.05, "1G capped low-salt": 0.06, "1G uncapped high-salt": 0.14, "1G uncapped low-salt": 0.12}

Source: Ye et al. 2022 (doi:10.1038/s41594-022-00746-2), supplementary data.